Pooled drug test results. Numbers come from NIAID ChemDB, via PubChem.

All rows: growth or infection tests; agent: Mycobacterium tuberculosis

Rows are shuffled and stem from different studies. ECn: concentration that inhibits the pathogen or its effect by n%. MIC bound comes from a single tested concentration. An empty or dashed field is not shown. Percent inhibition refers to the dose given; in toxicity tests it is the harm to the cells.

smiles	endpoint	tested at	strain	conditions	read by	value
O=c1oc2ccc(F)cc2c(=S)n1-c1cccc(F)c1	MIC	-	My 331/88	14 d	-	8 µM
O=C1c2ccccc2OC(c2cccc(Br)c2)C1O	EC50	-	-	-	-	<12.5 µg/mL
CC1CCC(NCCNCCNc2ccccc2)CC1	MIC	-	-	-	-	50 µM
CN(C)C1CCC(OC(=O)c2ccc(N)cc2)CC1.Cl	MIC	-	H37Rv	-	-	100 µg/mL
CC[C@@H](CO)NCCN[C@@H](CC)CO	MIC	-	MDR12	-	broth dilution / resazurin	8 µg/mL
C=CCN(CCNC(C)Cc1ccc(Cl)cc1)C1CCCC1	MIC	-	-	-	-	50 µM
O=C1CN(C(=O)C2CCCN2C(=O)C2CCCN2)C(=O)CN1	MIC bound	-	H37Rv	-	resazurin	>6.25 µg/mL
Cc1ccc2oc(=S)n(-c3ccc(F)cc3)c(=S)c2c1	MIC	-	My 331/88	14 d	-	2 µM
CC1CCCC(NCCNC(c2ccccc2)c2ccccc2)C1C	MIC	-	-	-	-	50 µM
C[C@H]1C[C@H](N)CN1c1cc2c(cc1F)c(=O)c(C(=O)O)cn2-c1ccc(F)cc1F	MBC	-	ATCC 35827	-	-	8 µg/mL
Nc1ccc(Sc2ccc([N+](=O)[O-])cc2)cc1	MIC	-	H37Rv	-	-	>100 µg/mL
C[C@@H]1[C@@H](NCCNCC(c2ccccc2)c2ccccc2)C[C@H]2C[C@@H]1C2(C)C	MIC	-	-	-	-	3.13 µM
CC[C@H]1OC(=O)[C@H](C)[C@@H](O[C@H]2C[C@@](C)(OC)[C@@H](O)[C@H](C)O2)[C@H](C)[C@@H](O[C@@H]2O[C@H](C)C[C@H](N(C)C)[C@H]2O)[C@](C)(O)C[C@@H](C)CN(C)[C@H](C)[C@@H](O)[C@]1(C)O	MIC	-	ATCC 35822	-	-	>8 µg/mL
O=C1c2ccccc2-n2c1nc1ccc([N+](=O)[O-])cc1c2=O	MIC bound	-	H37Rv	-	BACTEC	≤12.5 µg/mL
COc1ccc(C2Oc3cc(OC)cc(OC)c3C(=O)C2Br)cc1	inhibition	12.5 µg/mL	H37Rv	-	-	0%
NC1CCN(c2nc3c(cc2F)c(=O)c(C(=O)O)cn3-c2ccc(F)cc2F)C1	MBC	-	H37Rv	-	-	>8 µg/mL
C=C1C(=O)[C@]23C[C@H]1CC[C@H]2[C@@]12CO[C@H](O)[C@@H]1C(C)(C)[C@@H](O)C[C@@H]2OC3=O	MIC	-	H37Rv	-	BACTEC	≥12.5 µg/mL
CCCCCCCCC(CCc1ccccc1)(C(=O)O)C(=O)O	MIC	-	H37Rv	-	-	>100 µg/mL
C=C1C(=O)O[C@@H]2[C@@H]1[C@@H](OC(=O)/C(C)=C/COC(C)=O)C[C@@]1(CO1)[C@@H]1[C@H]2C(C)=C[C@@H]1O	MIC	-	H37Rv	-	BACTEC	≥12.5 µg/mL
CCCCCCCCCCCCCCNC(N)=O	MIC	-	H37Rv	-	-	>100 µg/mL
O=C(O)c1ccc(N=NC2Sc3nc4ccccc4n3C2=O)cc1	inhibition	12.5 µg/mL	H37Rv	-	BACTEC	38%
Oc1ccc(-c2cc(O)c(-c3ccc(O)cc3)cc2O)cc1	MIC	-	H37Rv	-	-	>100 µg/mL
Nc1ncccc1/C=C/C(=O)c1cc2ccccc2cc1O	EC50	-	-	-	-	>12.5 µg/mL
Cc1cccc(C)c1N/C(=N\Nc1c([N+](=O)[O-])cccc1[N+](=O)[O-])NC(=O)c1ccccc1C(=O)N/C(=N/Nc1c([N+](=O)[O-])cccc1[N+](=O)[O-])Nc1c(C)cccc1C	inhibition	12.5 µg/mL	H37Rv	-	BACTEC	71%
O=C(/C=C/c1ccccc1[O-])/C=C/c1ccccc1[O-].[Na+].[Na+]	MIC	-	H37Rv	-	-	50 µg/mL
O=c1cc(-c2ccccc2-c2cccc3c(=O)cc(-c4ccccc4)oc23)oc2ccccc12	EC50	-	-	-	-	>12.5 µg/mL
CCCCC(=O)C(C)Nc1cc(NC(=O)OCC)nc(N)c1[N+](=O)[O-]	EC50	-	H37Rv	-	-	>12.5 µg/mL
CC(C)(C)c1ccc(OCCO)cc1	MIC	-	H37Rv	-	-	>100 µg/mL
CO[C@H]1/C=C/O[C@@]2(C)Oc3c(C)c(O)c4c(O)c(c5c(c4c3C2=O)NC2(CCN(CC(C)C)CC2)N=5)=NC(=O)/C(C)=C\C=C\[C@H](C)[C@H](O)[C@@H](C)[C@@H](O)[C@@H](C)[C@H](OC(C)=O)[C@@H]1C	MIC	-	2847 (rifampin-sensitive)	-	-	0.025 µg/mL
COc1c(C)c2c3c4c1C(=O)C(=CC4=O)NC(=O)/C(C)=C\C=C\[C@H](C)[C@@H]1OC(C)(C)O[C@@H]([C@@H](C)[C@H](OC(C)=O)[C@H](C)[C@@H](OC)/C=C/O[C@@](C)(O2)C3=O)[C@@H]1C	MIC bound	-	H37Rv	-	BACTEC	≤12.5 µg/mL
CN[C@@H]1[C@H](O[C@H]2[C@H](O[C@H]3[C@H](O)[C@@H](O)[C@H](N=C(N)N)[C@@H](O)[C@@H]3N=C(N)N)O[C@@H](C)[C@]2(O)C=O)O[C@@H](CO)[C@H](O)[C@H]1O	MIC	-	TN3360 (W)	-	-	>2 µg/mL
Nc1ccc(N=Nc2ccc(-c3ccc(N=Nc4c(S(=O)(=O)[O-])cc5cc(S(=O)(=O)[O-])c(N=Nc6cccc([N+](=O)[O-])c6)c(N)c5c4O)cc3)cc2)c2cc(S(=O)(=O)[O-])ccc12.[Na+].[Na+].[Na+]	inhibition	12.5 µg/mL	H37Rv	-	BACTEC	0%
COc1cc(OC)cc(C(=O)O)c1	MIC	-	H37Rv	-	-	>100 µg/mL
c1ccc2c(c1)Nc1ccc3ccccc3c1S2	MIC	-	H37Rv	-	-	>12.5 µg/mL
Cc1c(O)cc(O)cc1O	MIC	-	H37Rv	-	-	>100 µg/mL
CC(=O)NC[C@H]1CN(c2ccc(N3CCOCC3)c(F)c2)C(=O)O1	MIC	-	5S	-	-	0.5 µg/mL
COc1cc(OC)c2c(c1)OC(c1cc(OC)c(OC)c(OC)c1)C(Br)(Br)C2=O	EC50	-	H37Rv	-	-	>12.5 µg/mL
O=C1CCCN1CCCNCCNCCCc1ccccc1	MIC	-	-	-	-	50 µM
CCCCCCC(=O)OC[n+]1ccc2c(C)c3[nH]c4ccccc4c3c(C)c2c1	MIC bound	-	H37Rv	-	resazurin	<6.25 µg/mL
COc1ccc(/C=C/C(=O)c2ccc([N+](=O)[O-])cc2)cc1	inhibition	12.5 µg/mL	H37Rv	-	-	62%
O=C(O)CNC(=O)Cc1ccccc1	MIC	-	H37Rv	-	-	>100 µg/mL
Fc1ccc(-n2c(=S)oc3ccc(Br)cc3c2=S)cc1	MIC	-	My 331/88	14 d	-	1 µM
COc1ccc(C2Oc3c(I)cccc3C(=O)C2O)cc1	inhibition	12.5 µg/mL	-	-	-	6%
CC(Cc1c[nH]c2ccccc12)NCCNCC(c1ccccc1)c1ccccc1	MIC	-	-	-	-	6.25 µM
CCCCCNCCNC12CC3CC(CC(C3)C1)C2	MIC	-	-	-	-	37.5 µM
O=C(O)c1ccccc1C(=O)c1ccc(-c2ccccc2)cc1	MIC	-	H37Rv	-	-	100 µg/mL
COc1ccc2c(c1OC)[C@H]1N(C)CCc3cc4c(cc3[C@@]1(OC)C2=O)OCO4	MIC bound	-	H37Rv	-	BACTEC	>12.5 µg/mL
C[C@@H]1CN(c2c(F)c(N)c3c(=O)c(C(=O)O)cn(C4CC4)c3c2F)C[C@H](C)N1	MIC	-	ATCC 35823	-	-	0.03 µg/mL
O=S(c1cc(Br)ccc1O)c1cc(Br)ccc1O	MIC	-	H37Rv	-	-	25 µg/mL
CCCOC(=O)Nc1cc(NC(c2ccccc2)c2ccccc2)c2nc(-c3cc(OC)c(OC)c(OC)c3)c(-c3cc(OC)c(OC)c(OC)c3)nc2n1	inhibition	12.5 µg/mL	H37Rv	-	-	0%
O=[N+]([O-])c1c(Cl)cccc1-c1c[nH]cc1Cl	MIC bound	-	H37Rv	-	BACTEC	>6.25 µg/mL
OCc1cc2ccccc2cc1O	MIC	-	H37Rv	-	-	25 µg/mL
CC1(C)CCC[C@]2(C)[C@H]3C=C4C=C(O)C(=O)C=C4O[C@@]3(C)CC[C@@H]12	MIC	-	ETA-R	-	-	>12.5 µg/mL
CC(C)=CCC/C(C)=C/CNCCNCCc1cccs1	MIC	-	-	-	-	50 µM
FC(F)(F)Oc1ccc(CNCCNC2CCCCCCC2)cc1	MIC	-	-	-	-	50 µM
O=C1C=C(Br)/C(=N\Cl)C=C1Br	MIC	-	H37Rv	-	-	>100 µg/mL
CC1=NN(C(=O)c2ccc(Cl)cc2)C(=O)C1N=Nc1ccc(S(=O)(=O)Nc2ncccn2)cc1	inhibition	12.8 µg/mL	H37Rv	-	BACTEC	24%
Nc1ccc(S(=O)(=O)c2ccc(N)cc2S(=O)(=O)O)cc1	MIC	-	H37Rv	-	-	>100 µg/mL
CC1(C)CC2CC(C)(CN2CCNCC23CC4CC(CC(C4)C2)C3)C1	MIC	-	-	-	-	9.4 µM
NCC[C@H](O)C(=O)N[C@@H]1C[C@H](N)[C@@H](O[C@H]2O[C@H](CN)[C@@H](O)[C@H](O)[C@H]2O)[C@H](O)[C@H]1O[C@H]1O[C@H](CO)[C@@H](O)[C@H](N)[C@H]1O	MIC	-	2S	-	-	2.5 µg/mL
NC1CCN(c2c(F)cc3c(=O)c(C(=O)O)cn(C4CC4)c3c2Cl)C1	MBC	-	ATCC35838	-	-	0.125 µg/mL
CN(Cc1ccccc1)C(=S)S	MIC bound	-	H37Rv	-	BACTEC	>12.5 µg/mL
O=[N+]([O-])c1cc(OCCOCc2ccccc2)cc2cccnc12	MIC	-	H37Rv	-	-	100 µg/mL
CC(C)c1cc(O)c2c(c1O)[C@H]1C[C@H]3C(C)(C)CCC[C@]23C(=O)O1	inhibition	12.5 µg/mL	H37Rv	-	BACTEC	3%
CCOC(=O)Nc1cc(NCc2ccc(S(N)(=O)=O)cc2)c2nccnc2n1	EC50	-	H37Rv	-	-	>12.5 µg/mL
CCCCC(CC)CN1CN(CC(CC)CCCC)CC(C)(NCCNCc2ccc3c(c2)OCO3)C1	MIC	-	-	-	-	12.5 µM
CO[C@H]1/C=C/O[C@@]2(C)Oc3c(C)c(O)c4c(O)c(c(/C=N/N5CCN(C/C=C/c6ccccc6)CC5)c(O)c4c3C2=O)NC(=O)/C(C)=C\C=C\[C@H](C)[C@H](O)[C@@H](C)[C@@H](O)[C@@H](C)[C@H](OC(C)=O)[C@@H]1C	MBC	-	35 (rifampin-resistant)	-	-	0.8 µg/mL
COC(=O)[C@@H]1[C@H]2C[C@@H]3c4[nH]c5ccccc5c4CCN3C[C@@H]2CC[C@@H]1O	inhibition	12.8 µg/mL	H37Rv	-	BACTEC	11%
Br.O=C(c1ccccc1)C(Br)CN1CCCCC1	MIC	-	H37Rv	-	-	>100 µg/mL
FC(F)(F)c1ccc(-n2c(=S)oc3ccc(Cl)cc3c2=S)cc1	MIC	-	My 331/88	21 d	-	4 µM
NC1=NNC(=O)C1	MIC	-	H37Rv	-	-	>100 µg/mL
CN(C)c1ccc2nc3c(cc(Nc4cccc5cccc(Nc6cc7ccccc7c7nc8ccc(N(C)C)cc8[o+]c67)c45)c4ccccc43)[o+]c2c1	MIC	-	H37Rv	-	BACTEC	0.0125 µg/mL
CC(C)=CCC/C(C)=C/CNCCN[C@@H]1C[C@@H]2C[C@H]([C@H]1C)C2(C)C	MIC	-	-	-	-	25 µM
O=C(O)C1CC(=O)N(Cc2ccccc2)C1	MIC bound	-	H37Rv	-	resazurin	>6.25 µg/mL
CCOC(=O)Nc1cc(N)c2[nH]c(=S)n(N)c2c1	EC50	-	H37Rv	-	-	>12.5 µg/mL
COc1ccc2c(c1)OC(c1cccc([N+](=O)[O-])c1)CC2=O	EC50	-	H37Rv	-	-	>12.5 µg/mL
NC1=CC(=O)C(=O)c2ccccc21	MIC	-	H37Rv	-	-	25 µg/mL
CCOC(=O)Nc1cc2[nH]c(-c3cccc4ccccc34)nc2c(N(CCc2ccccc2)Cc2ccccc2)n1	EC50	-	H37Rv	-	-	<12.5 µg/mL
CC(CCc1ccccc1)NCCNC(C)Cc1c[nH]c2ccccc12	MIC	-	-	-	-	50 µM
CN=S(=O)(c1ccccc1)c1ccccc1	MIC bound	-	H37Rv	-	BACTEC	>12.5 µg/mL
Cc1ccc(N=Cc2ccccc2)c(O)c1	MIC	-	H37Rv	-	-	>100 µg/mL

6 of the rows above, restated:

smiles | endpoint | tested at | strain | conditions | read by | value
CN(C)C1CCC(OC(=O)c2ccc(N)cc2)CC1.Cl | MIC | - | H37Rv | - | - | 100 µg/mL
O=C1c2ccccc2OC(c2cccc(Br)c2)C1O | EC50 | - | - | - | - | <12.5 µg/mL
COC(=O)[C@@H]1[C@H]2C[C@@H]3c4[nH]c5ccccc5c4CCN3C[C@@H]2CC[C@@H]1O | inhibition | 12.8 µg/mL | H37Rv | - | BACTEC | 11%
CCOC(=O)Nc1cc(N)c2[nH]c(=S)n(N)c2c1 | EC50 | - | H37Rv | - | - | >12.5 µg/mL
CN[C@@H]1[C@H](O[C@H]2[C@H](O[C@H]3[C@H](O)[C@@H](O)[C@H](N=C(N)N)[C@@H](O)[C@@H]3N=C(N)N)O[C@@H](C)[C@]2(O)C=O)O[C@@H](CO)[C@H](O)[C@H]1O | MIC | - | TN3360 (W) | - | - | >2 µg/mL
COc1ccc2c(c1OC)[C@H]1N(C)CCc3cc4c(cc3[C@@]1(OC)C2=O)OCO4 | MIC bound | - | H37Rv | - | BACTEC | >12.5 µg/mL